Anti-infective test results gathered from many reports (values: NIAID ChemDB through PubChem).

Common to all: tests in culture; agent: Mycobacterium tuberculosis

MIC bound comes from a single tested concentration.

compound	endpoint	strain	read by	mutations	tested at	cells	result
CC[C@H]1OC(=O)[C@H](C)[C@@H](O[C@H]2C[C@@](C)(OC)[C@@H](O)[C@H](C)O2)[C@H](C)[C@@H](O[C@@H]2O[C@H](C)C[C@H](N(C)C)[C@H]2O)[C@](C)(OC)C[C@@H](C)C(=O)[C@H](C)[C@@H](O)[C@]1(C)O	MIC90	30 strains	-	-	-	-	>10 µg/mL
N/C(=N\N=C\c1ccc(Br)cc1)c1ccncc1	MIC	H37Rv	-	-	-	-	16 µg/mL
N/C(=N\N=C/c1cn(Cc2ccc(Cl)cc2Cl)c2ccccc12)c1ccc2ccccc2n1	MIC	H37RV (INH RMP OFL-S)	-	-	-	-	32 µg/mL
CO[C@H]1CCC[C@H]2C1=C(C(=O)OC(C)OC(=O)OC1CCCCC1)N1C(=O)[C@H]([C@@H](C)O)[C@@H]21	MIC50	H37Rv	luminescence	-	-	THP-1	0.85 µM
CCn1cc(C(=O)O)c(=O)c2cc(F)c(N3CCNCC3)cc21	MIC50	134 strains	-	-	-	-	4 µg/mL
CCN(CC)CCCC(C)Nc1ccnc2cc(Cl)ccc12	MIC	H37Rv	resazurin	-	-	-	>20 µg/mL
N/C(=N\N=C/c1cn(Cc2ccc(Br)cc2)c2ccccc12)c1ccc2ccccc2n1	MIC	H37RV (INH RMP OFL-S)	-	-	-	-	64 µg/mL
C(/C=C/c1ccccc1)=Nc1ccc(Cn2ccnc2)cc1	MIC	6425	-	-	-	-	8 µg/mL
C[C@@H](O)[C@H]1C(=O)N2C(C(=O)O)=C([C@H]3CCCO3)S[C@H]12	MIC50	H37Rv	luminescence	-	-	THP-1	1.85 µM
N/C(=N\N=C/c1cn(Cc2cccc(Br)c2)c2ccccc12)c1ccccn1	MIC	H37RV (INH RMP OFL-S)	-	-	-	-	16 µg/mL
Cc1cccc(O)c1C(=O)NCc1ccccc1	MIC	My 331/88	-	-	-	-	62.5 µg/mL
CCCCCCCCN1C(=O)CC(SCC(N)C(=O)O)C1=O	MIC	H37Rv	-	-	-	-	≤20 µg/mL
Cc1ccc(CNC(=O)c2cc(C)ccc2O)cc1	MIC	My 331/88	-	-	-	-	125 µg/mL
O=C(O)CCc1cnc(C2CCCC2)[nH]1	MIC	H37Rv	-	-	-	-	>6.25 µg/mL
CCCCc1ccc(-n2c3nc(=O)n(C)c(=O)c-3nc3ccccc32)cc1	MIC	H37Rv	-	-	-	VERO	1.56 µg/mL
CC(C)(C)c1nc(C(=O)O)c(C(C)(C)C)[nH]1	inhibition	H37Rv	-	-	6.25 µg/mL	-	0%
CC(NCCNCC(c1ccccc1)c1ccccc1)c1cccc2ccccc12	MIC	-	-	-	-	-	6.25 µM
CC1COc2c(N3CCN(C)CC3)c(F)cc3c(=O)c(C(=O)O)cn1c23	MIC90	100 isolates	-	-	-	-	2 µg/mL
CC(=O)c1ccc(NC(=O)/C(Cc2ccccn2)=N/NC(=O)C[N+](C)(C)C)cc1.[Cl-]	inhibition	H37Rv	BACTEC	-	12.5 µg/mL	-	12%
CCN(CC)Cc1cc(Nc2ccnc3cc(Cl)ccc23)ccc1O	MIC	H37Rv	resazurin	-	-	-	>20 µg/mL
N/C(=N\N=C\c1ccc(Cl)c([N+](=O)[O-])c1)c1ccncc1	MIC	H37Rv	-	-	-	-	>256 µg/mL
O=C(O)/C(=C\c1ccc(Cl)cc1)n1nnc2ccccc21	EC50	H37Rv	-	-	-	-	>12.5 µg/mL
Cc1nc2nc(S(=O)(=O)Nc3c(Br)ccc4cccnc34)nn2c2c1CCC2	MIC50	P887	visual reading	INH RIF resistant	-	-	2 µM
CC(C)/C=N/NC(=O)c1cnc(C2C3CC4CC(C3)CC2C4)[nH]1	inhibition	H37Rv	-	-	6.25 µg/mL	-	27%
N/C(=N\N=C\c1ccccc1Br)c1ccncc1	MIC	H37Rv	-	-	-	-	8 µg/mL
CCCCCCCCCN1C(=O)CC(NCCN(CCCC)CCCC)C1=O	MIC	H37Rv	-	-	-	-	≤20 µg/mL
CCc1cc(C(N)=S)ccn1	inhibition	592 strains	agar	-	5 µg/mL	-	88%
COC(=O)CCc1cnc(C2CCCCC2)[nH]1	inhibition	H37Rv	-	-	6.25 µg/mL	-	2%
CCCCN(CCNc1ccc(C)c2sc3cc(Cl)ccc3c(=O)c12)CC(C)O	MIC	H37Rv	BACTEC	-	-	-	≥12.5 µg/mL
N/C(=N\N=C/c1cn(Cc2ccccc2Br)c2ccccc12)c1ccccn1	MIC	H37RV (INH RMP OFL-S)	-	-	-	-	8 µg/mL
C(=C\c1ccccc1)/CNc1ccc(CN2CCOCC2)cc1	MIC	B814	-	-	-	-	32 µg/mL
Cc1ncc([N+](=O)[O-])n1CCNCCCn1ccnc1[N+](=O)[O-]	inhibition	H37Rv	resazurin	-	6.25 µg/mL	-	14%
O=C(O)/C(=C\c1ccc(C(F)(F)F)cc1)n1nnc2ccccc21	EC50	H37Rv	-	-	-	-	>12.5 µg/mL
O=C1Nc2ccccc2C12C=C(c1ccccc1)Nc1ccc(F)cc1S2	MIC	-	-	-	-	-	<12.5 µg/mL
N/C(=N\N=C/c1cn(Cc2ccc(Br)cc2)c2ccccc12)c1ccccn1	MIC	H37RV (INH RMP OFL-S)	-	-	-	-	64 µg/mL
Cc1ccc(S(=O)(=O)Nc2oc(-c3ccccc3)c(-c3ccccc3)c2C#N)cc1	inhibition	H37Rv	resazurin	-	50 µg/mL	-	9%
c1ccc(C(NCCNCc2ccc3c(c2)OCO3)c2ccccc2)cc1	MIC	-	-	-	-	-	50 µM
COc1cccc(/C=N/N=C(\N)c2ccncc2)c1OC	MIC	1054	-	-	-	-	256 µg/mL
COC(=O)CNC(=O)c1nc(C(C)(C)C)[nH]c1C(C)(C)C	MIC	H37Rv	-	-	-	-	>6.25 µg/mL
Oc1ccc(CCNCCNCc2ccco2)cc1	MIC	-	-	-	-	-	50 µM
NNC(=O)c1ccncc1	MIC	Isolate UT3174 (deletion)	-	-	-	-	>256 µg/mL
CC1COc2c(N3CCN(C)CC3)c(F)cc3c(=O)c(C(=O)O)cn1c23	MIC	SMI 10	agar	-	-	-	8 µg/mL
COc1ccc(CC(=O)c2c(O)c3c(c(CC=C(C)C)c2OC)OC(C)(C)C=C3)cc1	MIC bound	H37Rv	BACTEC	-	-	-	>128 µg/mL
NC(=O)/C(=C\c1ccccc1)n1nc2ccccc2n1	inhibition	H37Rv	-	-	12.5 µg/mL	-	0%
O=C(O)CCc1cnc(C2C3CC4CC(C3)CC2C4)[nH]1	MIC	H37Rv	-	-	-	-	>6.25 µg/mL
CC(O)C1C(=O)N2C(C(=O)O)C=C(SC3CN(C4=NCCC4)C3)C12	MIC90	H37Rv	luminescence	-	-	THP-1	46.48 µM
O=C1C=C2C=C[C@@H]3C[C@@]2(O1)[C@H]1CCCCN31	MIC bound	H37Rv	BACTEC	-	-	-	>12.5 µg/mL
N[C@@H]1CONC1=O	inhibition	35 strains	agar	-	20 µg/mL	-	91%
Cc1cc(/C=N/NC(N)=O)c(C)c2c1oc1ccccc12	MIC bound	H37Rv	BACTEC	-	-	-	>12.5 µg/mL
Nc1ncc(Cl)c2c1ncn2[C@@H]1O[C@H](CO)[C@@H](O)[C@H]1O	MIC	SRICK1	-	-	-	-	>100 µg/mL
CCOC(=O)c1nc(C23CC4CC(CC(C4)C2)C3)[nH]c1C1C2CC3CC(C2)CC1C3	MIC	H37Rv	-	-	-	-	>6.25 µg/mL
CO[C@H]1/C=C/O[C@@]2(C)Oc3c(C)c(O)c4c(O)c(cc(O)c4c3C2=O)NC(=O)/C(C)=C\C=C\[C@H](C)[C@H](O)[C@@H](C)[C@@H](O)[C@@H](C)[C@H](OC(C)=O)[C@@H]1C	MIC	H37Ra	-	-	-	-	0.05 µg/mL
COc1ccc2nc3cc(Cl)ccc3c(Nc3cc(CN4CCCC4)c(O)c(CN4CCCC4)c3)c2n1	MIC	53.3	resazurin	Rv2466c W28S	-	-	5–10 µg/mL
CCN(CC)CCCC(C)NC(=O)c1ccc(Cl)nc1	inhibition	H37Rv	BACTEC	-	12.5 µg/mL	-	7%
CCCCC(CC)CN1CN(CC(CC)CCCC)CC(C)(NCCNCc2ccccc2F)C1	MIC	-	-	-	-	-	12.5 µM
Nc1nccc2c1ncn2[C@@H]1O[C@H](CO)[C@@H](O)[C@H]1O	MIC	SRICK1	-	-	-	-	>100 µg/mL
O=C(NCc1ccc(Br)cc1)c1cc(Cl)ccc1O	MIC	My 331/88	-	-	-	-	16 µg/mL
C[C@@H]1CN(C(=S)Nc2ccccc2)[C@@H](C)CN1C=O	MIC	H37Rv	BACTEC	-	-	-	≥12.5 µg/mL
N#C/C(=C\c1cccs1)n1nc2ccccc2n1	inhibition	H37Rv	-	-	12.5 µg/mL	-	10%
Nc1ccc(C(=O)O)c(O)c1	EC50	35 strains	agar	-	-	-	<5 µg/mL
CCOC(=O)NN(C(=O)OCC)C1CCN=C1C(=O)OC	MIC bound	H37Rv	resazurin	-	-	-	>6.25 µg/mL
Cc1ccn2nc(S(=O)(=O)Nc3c(Br)ccc4cccnc34)nc2n1	MIC50	X24	visual reading	INH RIF resistant	-	-	0.5 µM
Cn1c2cc(Cl)c(Cl)cc2nc2cc3c(cc21)c(Cl)c(=O)c1cc2cc(Cl)c(Cl)cc2cc13	inhibition	H37Rv	BACTEC	-	12.5 µg/mL	-	-13%
COc1cc(/C=N/N=C(\N)c2ccncc2)cc(OC)c1	MIC	1342	-	-	-	-	256 µg/mL
O=C(Nc1cc2c3cc(NC(=O)c4ccccc4)c4c(=O)c5ccccc5c(=O)c4c3[nH]c2c2c(=O)c3ccccc3c(=O)c12)c1ccccc1	inhibition	H37Rv	BACTEC	-	12.5 µg/mL	-	12%
C(=C\c1ccccc1)/CNc1ccc(Cn2ccnc2)cc1	MIC	B905	-	-	-	-	16 µg/mL
C[C@H](O)[C@H]1C(=O)N2C(C(=O)O)=C(S[C@@H]3CN[C@H](C(=O)N(C)C)C3)[C@H](C)[C@H]12	MIC50	H37Rv	luminescence	-	-	THP-1	6.78 µM
COc1ccc(CSC(=S)Nc2cc(Cl)c(Cl)cc2Cl)cc1	inhibition	H37Rv	BACTEC	-	128 µg/mL	-	100%
COc1ccccc1/C=N/N=C(\N)c1ccncc1	MIC	1342	-	-	-	-	64 µg/mL
C(=C\c1ccccc1)/CNc1cccc(Cn2ccnc2)c1	MIC	103471	-	-	-	-	>64 µg/mL
N/C(=N\N=C\c1ccc([N+](=O)[O-])cc1)c1ccncc1	MIC	1342	-	-	-	-	>256 µg/mL
CN1CSC(=S)N(C)C1	MIC bound	H37Rv	BACTEC	-	-	-	≤12.5 µg/mL
N/C(=N\N=C/c1cn(Cc2ccccc2Cl)c2ccccc12)c1ccccn1	MIC	H37RV (INH RMP OFL-S)	-	-	-	-	32 µg/mL
N#Cc1nc(NC(=O)c2ccccc2C(=O)O)c(C#N)[nH]1	MIC bound	H37Rv	BACTEC	-	-	-	>12.5 µg/mL
N/C(=N\N=C/c1cn(Cc2cccc(Cl)c2)c2ccccc12)c1ccc2ccccc2n1	MIC	H37RV (INH RMP OFL-S)	-	-	-	-	>128 µg/mL
Nc1nc(F)cc2c1ncn2[C@@H]1O[C@H](CO)[C@@H](O)[C@H]1O	MIC	SRICK1	-	-	-	-	>100 µg/mL
O=C(CN1C(=O)CCC1=O)Nc1ccc(N2CCCCC2)cc1	MIC	H37Ra	-	-	-	-	≤20 µg/mL
Oc1cc(Br)ccc1C(=S)NCc1ccc(Cl)c(Cl)c1	MIC	My 331/88	-	-	-	-	4 µg/mL
Cc1cc(=O)c2c(ccc3c(=O)cc(C)[nH]c32)[nH]1	MIC	H37Rv	BACTEC	-	-	-	≥12.5 µg/mL
CCCCCCCCCN1C(=O)CC(SCCNC(=O)c2ccc([N+](=O)[O-])cc2)C1=O	MIC	H37Ra	-	-	-	-	≤20 µg/mL
COc1ccc(-c2nc3c(=O)n(C)c(=O)nc-3n(C)n2)cc1OC	MIC	H37Rv	resazurin	-	-	-	3.13 µg/mL
CNC1CCCN(c2c(F)cc3c(=O)c(C(=O)O)cn(C4CC4)c3c2OC)C1	MIC50	100 isolates	-	-	-	-	1 µg/mL
CCOC(=O)c1cnc(C(C)(C)C)[nH]1	MIC	H37Rv	-	-	-	-	>6.25 µg/mL
CCOC(=O)CN(/N=C/c1ccc([N+](=O)[O-])o1)C(N)=O	MIC bound	H37Rv	BACTEC	-	-	-	>12.5 µg/mL
O=C(O)c1nc(C2CCCCC2)[nH]c1C1CCCCC1	inhibition	H37Rv	-	-	6.25 µg/mL	-	1%
NC(=O)/C(=C\c1ccc(Cl)cc1)n1nnc2ccccc21	inhibition	H37Rv	-	-	12.5 µg/mL	-	0%
Cn1cc(NC(=O)c2cc(NC(=O)c3cc(NC=O)cn3C)cn2C)cc1C(=O)NCCC(=N)N	MIC	ETA-R	-	-	-	-	6.4 µg/mL
N#Cc1c(NC(=O)c2ccccc2)oc(-c2ccccc2)c1-c1ccccc1	inhibition	H37Rv	resazurin	-	50 µg/mL	-	6%
NS(=O)(=O)c1cc2c(cc1Cl)NC(C(=O)c1cc(=O)c3ccc(O)cc3o1)=NS2(=O)=O	MIC bound	H37Rv	resazurin	-	-	-	>6.25 µg/mL
Cc1ccc(/C=N/N=C(\N)c2ccncc2)c(C)c1	MIC	1054	-	-	-	-	8 µg/mL

7 of the rows above, restated:

compound,endpoint,strain,read by,mutations,tested at,cells,result
Cc1ccc(CNC(=O)c2cc(C)ccc2O)cc1,MIC,My 331/88,-,-,-,-,125 µg/mL
O=C(NCc1ccc(Br)cc1)c1cc(Cl)ccc1O,MIC,My 331/88,-,-,-,-,16 µg/mL
N/C(=N\N=C/c1cn(Cc2cccc(Cl)c2)c2ccccc12)c1ccc2ccccc2n1,MIC,H37RV (INH RMP OFL-S),-,-,-,-,>128 µg/mL
COC(=O)CCc1cnc(C2CCCCC2)[nH]1,inhibition,H37Rv,-,-,6.25 µg/mL,-,2%
N#Cc1c(NC(=O)c2ccccc2)oc(-c2ccccc2)c1-c1ccccc1,inhibition,H37Rv,resazurin,-,50 µg/mL,-,6%
N/C(=N\N=C/c1cn(Cc2cccc(Br)c2)c2ccccc12)c1ccccn1,MIC,H37RV (INH RMP OFL-S),-,-,-,-,16 µg/mL
N/C(=N\N=C\c1ccccc1Br)c1ccncc1,MIC,H37Rv,-,-,-,-,8 µg/mL

Percent inhibition refers to the dose given; in toxicity tests it is the harm to the cells. Lines come from different laboratories, so protocols vary. MIC50, MIC90 and the like: level of inhibition, or share of isolates inhibited. Blank or dashed fields: not listed here. ECn: concentration that inhibits the pathogen or its effect by n%. a–b is a range or a potency band.